System: Sprague-Dawley rat
Assay: Whole-body plethysmography of frequency and depth of breathing in unrestrained rats
Conditions: for behaviour or arousal state (spontaneous movement, agitation, sedation): P17 rat after fentanyl 130 μg/kg, Compound A 33 mg/kg or CX614 2.5 mg/kg i.p.
[1] = P17 rat, fentanyl 130 μg/kg i.p., then Compound A 33 mg/kg or CX614 2.5 mg/kg

O=C(c1ccc2nonc2c1)N1CCOCC1 [Compound A, 4-(benzofurazan-5-ylcarbonyl)morpholine]
behaviour or arousal state (spontaneous movement, agitation, sedation): did not result in any obvious effect
behaviour or arousal state (spontaneous movement, agitation, sedation) (listed as 4-(benzofurazan-5-ylcarbonyl)morpholine): without any obvious effect
fentanyl-induced respiratory depression [1]: reversed
time to reversal of fentanyl-induced respiratory depression [1]: within five-minutes
time to reversal of fentanyl-induced respiratory depression (P17 rat, fentanyl 130 μg/kg i.p., then Compound A 33 mg/kg or CX614 2.5 mg/kg, listed as 4-(benzofurazan-5-ylcarbonyl)morpholine): ≤ 5 min
fentanyl-induced respiratory depression (separate experiment, doses as low as 20 mg/kg): partially alleviated
